Measured values from several laboratories, pooled; numbers as filed in NIAID ChemDB.

Shared fields: target-level tests; agent: HIV-1; protein: gp120; read-out: IC50

a–b is a range or a potency band. Neighbouring rows are from separate reports. Blank or dashed fields: not listed here. ICn: concentration for n% inhibition.

{"smiles": "O=C(O)C[C@@H]1CCCN1S(=O)(=O)c1cnc(N2CCC(CCCC3CCN(S(=O)(=O)c4cc(Br)c(Cl)s4)CC3)CC2)c(Br)c1", "read by": "fluorescence", "value": "1–10 µM"}
{"smiles": "NC(=O)[C@H](CCCN=C(N)N)NC(=O)[C@H](Cc1ccccc1)NC(=O)[C@@H](N)Cc1ccccc1", "read by": "ELISA", "value": "550 µM"}
{"smiles": "C=CC1=C(C)C2=NC1=CC1=NC(=CC3=C(C)C(=C([O-])[O-])C(=N3)C(CC(=O)O)=C3NC(=C2)C(C)C3CCC(=O)O)C(CC)=C1C.[Mg+2]", "value": "<60 µg/mL"}
{"smiles": "CCCCCCC[C@H]1CC2CCC3C(C(=O)OCCCCCCCCCC4N=C(N)N5CCCC5=C4C(=O)OCCCCN=C(N)N)=C(C)NC(=N1)N23", "read by": "ELISA", "value": "31 µM"}
{"smiles": "C[C@@H]1CN(C(=O)c2ccccc2)CCN1C(=O)C(=O)c1c[nH]c2ccccc12", "strain or isolate": "YU2", "read by": "ELISA", "value": "<0.1 µM"}
{"smiles": "O=C(O)CCC1=C(CC(=O)O)c2cc3nc(cc4[nH]c(cc5[nH]c(cc1n2)c(CC(=O)O)c5CCC(=O)O)c(CCC(=O)O)c4CC(=O)O)C(CC(=O)O)=C3CCC(=O)O", "value": "<60 µg/mL"}
{"smiles": "NC(=O)[C@H](CCCN=C(N)N)NC(=O)[C@H](CCCN=C(N)N)NC(=O)[C@@H](N)Cc1ccccc1", "read by": "ELISA", "value": "690 µM"}
{"smiles": "CN[C@@H]1[C@H](O[C@@H]2OC[C@@H](O)[C@H](O)[C@H]2O)[C@@H](O)[C@H](O[C@H]2c3cc(C)c(C(=O)N[C@H](C)C(=O)O)c(O)c3-c3c(cc4c(c3O)C(=O)c3cc(OC)cc(O)c3C4=O)[C@@H]2O)O[C@@H]1C", "read by": "ELISA", "value": "27.5 µg/mL"}
{"smiles": "O=C(O)[C@H](Cc1ccccc1)NS(=O)(=O)c1cnc(N2CCC(CCCCC3CCN(S(=O)(=O)c4cc(Br)c(Cl)s4)CC3)CC2)c(C(F)(F)F)c1", "read by": "fluorescence", "value": "1–10 µM"}
{"smiles": "NCCCC[C@H](NC(=O)[C@H](Cc1ccccc1)NC(=O)[C@@H](N)Cc1ccccc1)C(=O)N[C@@H](CCCN=C(N)N)C(N)=O", "read by": "ELISA", "value": "2910 µM"}
{"smiles": "C=Cc1c(C)c2cc3[nH]c(cc4nc(cc5nc(cc1[nH]2)C(C)=C5CCC(=O)OC)C(CCC(=O)OC)=C4C)c(C)c3C=C", "value": ">60 µg/mL"}
{"smiles": "CN1C(=O)C(c2cc(Cl)c(O)c(Cl)c2)NC(=O)[C@@H]2NC(=O)C(c3cc(Cl)c(O)c(Cl)c3)NC(=O)[C@H](NC(=O)C(=O)c3cc(Cl)c(O)c(Cl)c3)Cc3c[nH]c4c(cccc34)-c3cc2cc(c3O)Oc2ccc(cc2)CC1C(=O)NC(C(=O)O)c1ccc(O)cc1", "read by": "ELISA", "value": "<10 µM"}
{"smiles": "C[C@@H](O)[C@H](NC(=O)[C@H](CC(=O)O)NC(=O)[C@H](Cc1c[nH]c2ccccc12)NC(=O)[C@@H]1CCCN1C(=O)[C@H](Cc1c[nH]c2ccccc12)NC(=O)[C@@H](N)CO)C(=O)N[C@@H](Cc1c[nH]c2ccccc12)C(=O)O", "strain or isolate": "HXB2", "read by": "ELISA", "value": ">130 µM"}
{"smiles": "CC(C)[C@H](NC(=O)[C@H](Cc1ccccc1)NC(=O)[C@@H](N)Cc1ccccc1)C(=O)N[C@@H](CCCN=C(N)N)C(N)=O", "read by": "ELISA", "value": "920 µM"}
{"smiles": "C=Cc1c(C)c2cc3nc(cc4[nH]c(cc5nc(cc1[nH]2)C(C)=C5CC)c(C)c4C(=O)O)C(CCC(=O)O)=C3C", "value": "<60 µg/mL"}
{"smiles": "CC(=O)Nc1ccc(SSc2ccc(NC(C)=O)cc2C(N)=O)c(C(N)=O)c1", "value": ">100 µM"}
{"smiles": "CC(C)[C@H](NC(=O)[C@@H](N)Cc1ccccc1)C(=O)N[C@@H](CCCN=C(N)N)C(N)=O", "read by": "ELISA", "value": "270 µM"}
{"smiles": "O=C(O)CN(CCc1ccc(F)cc1)S(=O)(=O)c1cnc(N2CCC(CCCC3CCN(S(=O)(=O)c4cc(Br)c(Cl)s4)CC3)CC2)c(Br)c1", "read by": "fluorescence", "value": "<1 µM"}
{"smiles": "CC1=C(CCC(=O)O)c2cc3nc(cc4[nH]c(cc5[nH]c(cc1n2)c(CCC(=O)O)c5CC(=O)O)c(CCC(=O)O)c4C)C(CCC(=O)O)=C3C", "value": ">60 µg/mL"}
{"smiles": "NCCCC[C@H](NC(=O)[C@@H](N)Cc1ccccc1)C(=O)N[C@@H](CCCN=C(N)N)C(N)=O", "read by": "ELISA", "value": "390 µM"}
{"smiles": "CC1=C(CCC(=O)O)c2cc3nc(cc4[nH]c(cc5[nH]c(cc1n2)c(C)c5C(O)CO)c(C)c4C(O)CO)C(C)=C3CCC(=O)O", "value": "~60 µg/mL"}
{"smiles": "CSCC[C@H](NC(=O)[C@H](CCSC)NC(=O)[C@H](C)NC(=O)[C@H](CCC(=O)O)NC(=O)[C@H](CO)NC(=O)[C@H](Cc1c[nH]c2ccccc12)NC(=O)[C@@H]1CCCN1)C(=O)O", "strain or isolate": "HXB2", "read by": "ELISA", "value": ">500 µM"}
{"smiles": "O=C(O)C1=C[C@@H](OC(=O)c2cc(O)c(O)c(O)c2)[C@@H](O)[C@H](OC(=O)c2cc(O)c(O)c(O)c2)C1", "read by": "fluorescence", "value": "76 µM"}
{"smiles": "COc1cccc2[nH]cc(C(=O)C(=O)N3CCN(C(=O)c4ccccc4)C[C@H]3C)c12", "strain or isolate": "JR-FL", "read by": "ELISA", "value": "0.28 µM"}
{"smiles": "O=c1c(O)cc([C@H]2Oc3cc(O)cc(O)c3C[C@H]2O)cc2c([C@H]3Oc4cc(O)cc(O)c4C[C@H]3O)cc(O)c(O)c12", "read by": "ELISA", "value": ">20 µM"}
{"smiles": "O=C(O)CC1Cc2ccccc2CN1S(=O)(=O)c1cnc(N2CCC(CCCCC3CCN(S(=O)(=O)c4cc(Br)c(Cl)s4)CC3)CC2)c(Br)c1", "read by": "fluorescence", "value": "1 µM"}
{"smiles": "COC(=O)C(=O)N1CCC[C@@H]1C(=O)N[C@H](Cc1ccccc1)C(=O)OCc1ccccc1", "read by": "ELISA", "conditions": "3% FBS", "value": ">500 µM"}
{"smiles": "O=C(O[C@H]1Cc2c(O)cc(O)cc2O[C@@H]1c1cc(O)c(O)c(O)c1)c1cc(O)c(O)c(O)c1", "read by": "ELISA", "value": ">20 µM"}
{"smiles": "CC1(C)CC(NC(=O)C(=O)Nc2ccc(Br)cc2)CC(C)(C)N1", "strain or isolate": "IIIB", "read by": "ELISA", "value": "3.08 µM"}
{"smiles": "O=C1OC(C2OC(=O)c3cc(O)c(O)c(O)c3-c3c(O)c(O)c4oc(=O)c5c(c(O)c(O)c6oc(=O)c3c4c65)-c3c(cc(O)c(O)c3O)C(=O)OCC2O)C2OC(=O)c3c(c(O)c(O)c(O)c3C2O)-c2c1cc(O)c(O)c2O", "read by": "fluorescence", "value": "0.14 µM"}
{"smiles": "C=Cc1c(C)c2cc3[nH]c(cc4nc(cc5nc(cc1[nH]2)C(C)=C5CCC(=O)O)C(CCC(=O)O)=C4C)c(C)c3C(C)O", "value": "<60 µg/mL"}
{"smiles": "NS(=O)(=O)c1ccc(NC(=O)c2ccccc2SSc2ccccc2C(=O)Nc2ccc(S(N)(=O)=O)cc2)cc1", "value": ">100 µM"}
{"smiles": "O=C(O)[C@H](Cc1ccccc1)NS(=O)(=O)c1ccc(N2CCC(CCCC3CCN(S(=O)(=O)c4cc(Br)c(Cl)s4)CC3)CC2)c(Cl)c1", "read by": "fluorescence", "value": "1–10 µM"}
{"smiles": "Cc1ncc(COP(=O)(O)O)c(C=O)c1O", "read by": "binding", "value": ">100 µM"}
{"smiles": "C1=Cc2nc1c(-c1ccccc1)c1ccc([nH]1)c(-c1ccccc1)c1nc(c(-c3ccccc3)c3ccc([nH]3)c2-c2ccccc2)C=C1", "value": ">60 µg/mL"}
{"smiles": "O=C(O)[C@H](Cc1ccccc1)NS(=O)(=O)c1cnc(N2CCC(CCCCCC3CCN(S(=O)(=O)c4cc(Br)c(Cl)s4)CC3)CC2)c(Br)c1", "read by": "fluorescence", "value": "<1 µM"}
{"smiles": "COC(=O)C(=O)N1CCC[C@H]1C(=O)N[C@@H](Cc1ccccc1)C(=O)OCc1ccccc1", "read by": "ELISA", "value": ">400 µg/mL"}
{"smiles": "C[n+]1ccc(-c2c3nc(c(-c4cc[n+](C)cc4)c4ccc([nH]4)c(-c4cc[n+](C)cc4)c4nc(c(-c5cc[n+](C)cc5)c5ccc2[nH]5)C=C4)C=C3)cc1", "value": ">60 µg/mL"}

Again, the opening 2 rows:

smiles	strain or isolate	read by	conditions	value
O=C(O)C[C@@H]1CCCN1S(=O)(=O)c1cnc(N2CCC(CCCC3CCN(S(=O)(=O)c4cc(Br)c(Cl)s4)CC3)CC2)c(Br)c1		fluorescence		1–10 µM
NC(=O)[C@H](CCCN=C(N)N)NC(=O)[C@H](Cc1ccccc1)NC(=O)[C@@H](N)Cc1ccccc1		ELISA		550 µM